Assay results published in patent publication US10259774B1, “Antimicrobials for preservation of home and personal care products” (GALAXY SURFACTANTS LTD., priority 2018, dated 2019).

Experiment: Foam measurement (Hart de George method)
Type: physicochemical
Conditions: for foam: water of hardness 150 ppm
[1] = 1% of substance in 9% SLES solution

Substance | Foam Height (mL) pH 6.0 [1] [mL] | Foam Height (mL) pH 8.0 [1] [mL] | foam (1% of substance mixed with SLES (9%), Hart de George method) [cc] | effect on foaming power / foaming characteristics of anionic surfactants (sodium laureth sulphate, Hart de George method) | foam (9% solution, Hart de George method) | Foam Height (mL) pH 6.0 (10% solution) [mL] | Foam Height (mL) pH 8.0 (10% solution) [mL]
N-Alkyl, N,N-dimethyl, N-benzyl ammonium chloride [Benzalkonium chloride] | 370 | 380 | 380 | significant depression | – | – | –
Sodium lauryl ether sulphate [Sodium lauryl ether sulphate (SLES)] | – | – | – | – | around 600 ccs | 600 | 600
